Measured values from several laboratories, pooled; numbers as filed in NIAID ChemDB.

Shared fields: enzyme or target tests

Fold resistance: result on the changed form divided by that on wild type. Lines come from different laboratories, so protocols vary. ICn is the concentration giving n% inhibition. An empty or dashed field is not shown. Inhibition is in % at the dose shown (toxicity tests: loss of growth or viability).

{"compound": "COc1cc(O)c2c(c1)C(=O)c1c(cc3c(c1O)-c1c(cc(C)c(C(=O)N[C@H](C)C(=O)O)c1O)[C@H](O)[C@H]3O)C2=O", "species": "Actinomadura verrucosospora", "protein": "Glucosidase", "measure": "IC50", "value": ">100 µg/mL"}
{"compound": "COCON1C(=O)[C@H]([C@H](O)C(C)C)N(Cc2ccc(OC)cc2)[C@@H](Cc2ccccc2)C1=O", "species": "Influenza A virus", "protein": "Transcriptase", "measure": "IC50", "value": ">200 µM"}
{"compound": "Nc1ccc(S(=O)(=O)c2ccc(N)cc2)cc1", "species": "Pneumocystis carinii", "protein": "DHPS", "measure": "IC50", "value": "0.15 µM"}
{"compound": "COc1cc(OC)c(C=C2SC(=O)N(CC(=O)N3CCN(c4ccc(C#N)cc4)CC3)C2=O)c(OC)c1", "species": "Plasmodium falciparum", "protein": "Falcipain-2", "read by": "fluorescence", "measure": "IC50", "value": "12.24 µM"}
{"compound": "Cc1cc(N(C(=O)COC(C)C)S(=O)(=O)c2ccc(N)cc2)no1", "species": "Pneumocystis carinii", "protein": "DHPS", "measure": "IC50", "value": "0.023 µM"}
{"compound": "O=C(Nc1nnc(NCC(c2ccccc2)c2ccccc2)s1)c1c(Cl)cccc1Cl", "species": "Human cytomegalovirus", "protein": "Polymerase", "measure": "IC50", "value": "<25 µM"}
{"compound": "Cc1cc2c(c(O)c1C(=O)NC(C)C(=O)O)-c1c(O)c3c(c(O)c1C(O)C2O)C(=O)c1c(O)cc(O)cc1C3=O", "species": "Actinomadura verrucosospora", "protein": "Glucosidase", "measure": "IC50", "value": ">100 µg/mL"}
{"compound": "Nc1ccc(S(=O)(=O)Nc2ccc(Cl)nn2)cc1", "species": "Pneumocystis carinii", "protein": "DHPS", "measure": "IC50", "value": "0.018 µM"}
{"compound": "O=C(CN1C(=O)SC(=Cc2ccc(Cl)cc2)C1=O)N1CCN(c2ccccc2)CC1", "species": "Plasmodium falciparum", "protein": "Falcipain-2", "read by": "fluorescence", "measure": "IC50", "value": ">50 µM"}
{"compound": "O=C(OC[C@H]1O[C@@H](n2cnc3c(=O)[nH]cnc32)[C@H](O)[C@@H]1O)c1ccc(S(=O)(=O)F)cc1", "species": "West Nile virus", "protein": "NTPase/helicase", "measure": "inhibition", "dose": "300 µM", "value": "14%"}
{"compound": "CN[C@H]1[C@@H](O[C@@H]2O[C@H](CO)[C@@H](O)[C@H](O)[C@H]2O)[C@H](O)[C@@H](O[C@H]2c3cc(C)c(C(=O)N[C@H](C)C(=O)OC)c(O)c3-c3c(cc4c(c3O)C(=O)c3cc(OC)cc(O)c3C4=O)[C@@H]2O)O[C@H]1C", "species": "Actinomadura verrucosospora", "protein": "Glucosidase", "measure": "IC50", "value": ">100 µg/mL"}
{"compound": "Cc1cn([C@H]2C=C[C@@H](COP(=O)(O)OP(=O)(O)OP(=O)(O)O)O2)c(=O)[nH]c1=O", "species": "HIV", "changes": "RT-N137T", "protein": "Reverse transcriptase", "read by": "nucleotide incorporation / radiometric", "measure": "fold resistance", "value": "8.95"}
{"compound": "Cc1ccc(/C=C/C(=O)N[C@@H](C)c2nc3scc(C)c3c(=O)o2)s1", "species": "Cytomegalovirus", "protein": "Protease", "measure": "IC50", "value": "0.53 µM"}
{"compound": "O=C(/C=C/c1ccccc1Cl)Nc1nnc(NCCCN2CCCC2=O)s1", "species": "Human cytomegalovirus", "protein": "Polymerase", "measure": "IC50", "value": ">25 µM"}
{"compound": "CCCCNC(=O)[C@@H](C[C@H](O)[C@H](CC1CCCCC1)NC(=O)[C@H](CCCC)N1CCN(C(=O)N2CCN(C)CC2)[C@H](Cc2ccccc2)C1=O)C(C)C", "species": "Candida albicans", "protein": "Secreted aspartic proteinase", "measure": "IC50", "value": "0.0014 µM"}
{"compound": "CCOc1ccc2ccccc2c1C(=O)Nc1nnc(NCCc2c[nH]c3ccccc23)s1", "species": "Human cytomegalovirus", "protein": "Polymerase", "measure": "IC50", "value": "<25 µM"}
{"compound": "COCON1C(=O)/C(=C/c2ccc(F)cc2)N(Cc2ccc(OC)cc2)[C@@H](CC(C)C)C1=O", "species": "Influenza A virus", "protein": "Transcriptase", "measure": "IC50", "value": ">200 µM"}
{"compound": "CCC(CC)Nc1cc(C(=O)O)ccc1N1C(=O)CCC1(CO)CCO", "species": "Influenza A virus", "strain": "Subtype N1", "protein": "Neuraminidase", "measure": "IC50", "value": ">1000 µM"}
{"compound": "O=C(Nc1nnc(NCCCNC2CCCCC2)s1)c1ccc2c(c1)C(=O)OC2=O", "species": "Human cytomegalovirus", "protein": "Polymerase", "measure": "IC50", "value": "<25 µM"}
{"compound": "CCCCNC(=O)[C@@H](C[C@H](O)[C@H](CC1CCCCC1)NC(=O)[C@H](CCCC)N1CCN(C(=O)N2CCN(C)CC2)[C@@H](Cc2ccccc2)C1=O)C(C)C", "species": "Candida albicans", "protein": "Secreted aspartic proteinase", "measure": "IC50", "value": "0.002 µM"}
{"compound": "COc1ccccc1C(=O)Nc1nnc(NCCCNC2CCCCC2)s1", "species": "Human cytomegalovirus", "protein": "Polymerase", "measure": "IC50", "value": ">25 µM"}
{"compound": "Cc1nc(N)c2ncn([C@@H]3O[C@H](COC(=O)c4ccc(S(=O)(=O)F)cc4)[C@@H](O)[C@H]3O)c2n1", "species": "Dengue virus", "protein": "NTPase/helicase", "measure": "inhibition", "dose": "300 µM", "value": "41%"}
{"compound": "O=C/C=C/c1ccccc1", "species": "Saccharomyces cerevisiae", "protein": "Chitin synthase 3", "measure": "Ki", "value": "970 µM"}
{"compound": "COCON1C(=O)[C@H]([C@H](O)C(C)C)N(Cc2ccc(OC)cc2)[C@@H](CC(C)C)C1=O", "species": "Influenza A virus", "protein": "Transcriptase", "measure": "IC50", "value": ">200 µM"}
{"compound": "CC(C)C(=O)Nc1ccc(S(=O)(=O)Nc2ccc(N)cc2O)cc1", "species": "Pneumocystis carinii", "protein": "DHPS", "measure": "IC50", "value": ">10 µM"}
{"compound": "COc1cccc2c1C(=O)c1c(O)c3c(c(O)c1C2=O)C[C@@](O)(C(C)=O)C[C@@H]3O[C@H]1C[C@H](N)[C@H](O)[C@H](C)O1", "species": "Dengue virus", "protein": "NTPase/helicase", "measure": "IC50", "value": "150 µM"}
{"compound": "COc1cc(OC)c(C=C2SC(=O)N(CC(=O)N3CCN(C(=O)c4ccccc4)CC3)C2=O)c(OC)c1", "species": "Plasmodium falciparum", "protein": "Falcipain-2", "read by": "fluorescence", "measure": "IC50", "value": "33.75 µM"}
{"compound": "Cc1cn([C@@H]2O[C@H](CO[Si](C)(C)C(C)(C)C)C3(OS(=O)(=O)C=C3N)[C@H]2O[Si](C)(C)C(C)(C)C)c(=O)n(C)c1=O", "species": "HIV", "changes": "RT-N137D", "protein": "Reverse transcriptase", "read by": "nucleotide incorporation / radiometric", "measure": "IC50", "value": "1.2 µM"}
{"compound": "O=C(CN1C(=O)SC(=Cc2ccc(F)cc2)C1=O)N1CCN(c2ccccc2)CC1", "species": "Plasmodium falciparum", "protein": "Falcipain-2", "read by": "fluorescence", "measure": "IC50", "value": ">50 µM"}
{"compound": "CCCCC(CC)CNc1nnc(NC(=O)c2ccc3c(c2)C(=O)OC3=O)s1", "species": "Human cytomegalovirus", "protein": "Polymerase", "measure": "IC50", "value": "<25 µM"}
{"compound": "Cc1cn([C@@H]2O[C@H](CO[Si](C)(C)C(C)(C)C)[C@@]3(OS(=O)(=O)C=C3N)[C@H]2O[Si](C)(C)C(C)(C)C)c(=O)[nH]c1=O", "species": "HIV", "changes": "RT-N137T", "protein": "Reverse transcriptase", "read by": "nucleotide incorporation / radiometric", "measure": "fold resistance", "value": "0.44"}
{"compound": "O=C(Nc1nnc(NCc2ccc(Cl)c(Cl)c2)s1)c1ccc2c(c1)C(=O)OC2=O", "species": "Human cytomegalovirus", "protein": "Polymerase", "measure": "IC50", "value": "<25 µM"}
{"compound": "COCON1C(=O)/C(=C\\C(C)C)N(Cc2ccc(OC)cc2)[C@@H](CC(C)C)C1=O", "species": "Influenza A virus", "protein": "Transcriptase", "measure": "IC50", "value": ">200 µM"}
{"compound": "COc1ccc(NS(=O)(=O)c2ccc(N)cc2)nn1", "species": "Pneumocystis carinii", "protein": "DHPS", "measure": "inhibition", "dose": "0.05 µM", "value": "75%"}
{"compound": "COC(=O)C1c2cc3c(c(O)c2C(O)CC1(C)O)C(=O)c1c(O)cc2c(c1C3=O)OC1OC2(C)C(O)C(N(C)C)C1O", "species": "West Nile virus", "protein": "NTPase/helicase", "measure": "IC50", "value": ">650 µM"}
{"compound": "O=C(Nc1nnc(NC2CCN(Cc3ccccc3)CC2)s1)c1c(Cl)cccc1Cl", "species": "Human cytomegalovirus", "protein": "Polymerase", "measure": "IC50", "value": "<25 µM"}
{"compound": "Nc1ccc(S(=O)(=O)Nc2ccccn2)cc1", "species": "Pneumocystis carinii", "protein": "DHPS", "measure": "IC50", "value": "0.18 µM"}

Repeating the first 4 entries:

compound | species | strain | changes | protein | read by | measure | dose | value
COc1cc(O)c2c(c1)C(=O)c1c(cc3c(c1O)-c1c(cc(C)c(C(=O)N[C@H](C)C(=O)O)c1O)[C@H](O)[C@H]3O)C2=O | Actinomadura verrucosospora | - | - | Glucosidase | - | IC50 | - | >100 µg/mL
COCON1C(=O)[C@H]([C@H](O)C(C)C)N(Cc2ccc(OC)cc2)[C@@H](Cc2ccccc2)C1=O | Influenza A virus | - | - | Transcriptase | - | IC50 | - | >200 µM
Nc1ccc(S(=O)(=O)c2ccc(N)cc2)cc1 | Pneumocystis carinii | - | - | DHPS | - | IC50 | - | 0.15 µM
COc1cc(OC)c(C=C2SC(=O)N(CC(=O)N3CCN(c4ccc(C#N)cc4)CC3)C2=O)c(OC)c1 | Plasmodium falciparum | - | - | Falcipain-2 | fluorescence | IC50 | - | 12.24 µM